# Results from paper PMC3057164, “Caffeoylquinic Acids Are Major Constituents with Potent Anti-Influenza Effects in Brazilian Green Propolis Water Extract” (Evidence-based Complementary and Alternative Medicine : eCAM, 2011).
# System: influenza A virus strain A/WSN/33 (H1N1)
# Settings: WSN/33 infected MDCK cells, Figures 2(b)-2(h)
substance,measurement,value
baccharin,Effect on cell survival rate of virus-infected cells (effective / ineffective),did not have any cell surviving activity
